Measured values from several laboratories, pooled; numbers as filed in NIAID ChemDB.

All rows: tests on isolated targets; species: Hepatitis C virus; target: Nonstructural protein 5B; measure: IC50

Blank or dashed fields: not listed here. Two numbers with a dash give a range or band. Lines come from different laboratories, so protocols vary. ICn is the concentration giving n% inhibition.

smiles | strain or isolate | read by | value
O=C(O)c1ccc(N2C(=O)C(=Cc3ccc(C#Cc4ccccc4)o3)SC2=S)cc1 | - | - | ≤1 µM
CC(C)Oc1ccc(CCC2(C3CCCC3)CC(O)=C(Sc3nccs3)C(=O)O2)cc1Cl | - | - | <1 µM
O=C(O)c1ccc(N2C(=O)C(=Cc3ccc(-c4nccs4)o3)SC2=S)cc1 | - | - | ≤1 µM
COc1c(-c2ccc3cc(NS(C)(=O)=O)ccc3c2)cc(-n2ccc(=O)[nH]c2=O)cc1C(C)(C)C | GT 2a#1 | nucleotide incorporation | 16.4 µM
CNC(=O)c1c(-c2ccc(F)cc2)oc2cc(S(=O)(=O)N3CCSCC3)c(OC(C)C)cc12 | - | - | ≤0.5 µM
O=C(O)CCN1C(=O)C(=Cc2ccc(-c3cc4ccccc4s3)o2)SC1=S | - | - | ≤1 µM
CNC(=O)c1c(-c2ccc(F)cc2)oc2cc(-c3c(C)noc3C)c(OCc3c(C)noc3C)cc12 | - | - | ≤0.5 µM
O=C1CC(=O)OC(CCc2ccc(Cl)c(Cl)c2)(C2CCCC2)C1 | - | - | 1–10 µM
Cc1ccc(-c2ccc(C=C3SC(=S)NC3=O)s2)cc1 | - | - | ≤1 µM
CNC(=O)c1c(-c2ccc(F)cc2)oc2cc(N3CCOCC3)c(OCc3nccn3Cc3ccccc3)cc12 | - | - | ≤0.5 µM
CC(C)Oc1ccc(CCC2(C3CCCC3)CC(O)=C(Sc3ccc(O)cc3)C(=O)O2)cc1Cl | - | - | <1 µM
CNC(=O)c1c(-c2ccc(F)cc2)oc2cc(-c3cccnc3)c(OC)cc12 | - | - | ≤0.5 µM
CCOc1ccc(CCC2(C3CCCC3)CC(=O)CC(=O)O2)cc1F | - | - | <1 µM
CNC(=O)c1c(-c2ccc(F)cc2)oc2cc(N(C)S(C)(=O)=O)c(OCCn3nc(C)cc3C)cc12 | - | - | ≤0.5 µM
COc1ccc(CCC2(C3CCCC3)CC(=O)CC(=O)O2)c(C#N)c1 | - | - | 10–50 µM
O=C(O)CN1C(=O)C(=Cc2ccc(-c3ccc(Cl)c(Cl)c3)o2)SC1=S | - | - | ≤1 µM

The last 2 rows once more:

smiles,strain or isolate,read by,value
COc1ccc(CCC2(C3CCCC3)CC(=O)CC(=O)O2)c(C#N)c1,-,-,10–50 µM
O=C(O)CN1C(=O)C(=Cc2ccc(-c3ccc(Cl)c(Cl)c3)o2)SC1=S,-,-,≤1 µM